Structures are written as SMILES. This is a selection; strong and weak results do not stand in their true shares. Records with an inconclusive call do not appear. The source made the active and inactive calls. Calls follow the shape of the full dose curve; tested in HEK293 cells.

The values that follow come from PubChem BioAssay AID540256 (National Center for Advancing Translational Sciences (NCATS), 2011).
% is scaled to controls: 0 for no effect and ±100 for the full control effect.

The experiment in a line: qHTS for Inhibitors of binding or entry into cells for Lassa Virus. Also: nearly all actives have a fitted effect of over 50% in size. Particulars: Lassa virus pseudotype entry inhibition, cell reporter; at 37.9 µM (top of the series) unless noted.
As for `O=[N+]([O-])c1cccc2n[nH]nc12`, the activity change, negative = inhibition is inactive: -17.7%. Regarding `O=[N+]([O-])c1cc([N+](=O)[O-])c(CCNc2ccccc2)c([N+](=O)[O-])c1`, the activity change, negative = inhibition was inactive: -0.623%. With `Cc1ccc(NP(=O)(Oc2ccccc2)Oc2ccccc2)nc1`, the activity change, negative = inhibition was inactive: 4.13% [at 46.1 µM].

With `COC(=O)C1(C)COP(=O)(Nc2ccccc2)OC1` (centres undefined), the activity change, negative = inhibition is inactive: 1.15% [at 46.1 µM]. Next, `O=[N+]([O-])c1ncn(CCn2ncnc2[N+](=O)[O-])n1`: inactive: -4.11%. The result for `O=P1(N(CCCl)CCCl)OCCCS1` (centres undefined) reads inactive: 5.78% [at 46.1 µM]. Next, `Cc1cc(SC(NC=O)C(Cl)(Cl)Cl)ncn1` (centres undefined): inactive: 17.1%; `O=P(Nc1ccccn1)(c1cccc2ccccc12)c1cccc2ccccc12`: inactive: -1.69% [at 46.1 µM]; `CCOC(=O)Nc1cccc([As](=O)(O)O)c1`: inactive: -8.07% [at 46.1 µM]. As for `Cc1cc(SC(NC(=O)c2ccccc2)C(Cl)(Cl)Cl)nc(C(C)C)n1` (centres undefined), the activity change, negative = inhibition is inactive: -22.4%.

With `CCC(C)N(CC(C)C)C(=S)SC(NC(C)=O)C(Cl)(Cl)Cl` (centres undefined), the activity change, negative = inhibition is inactive: -4.66%.

Turning to `CCOC(=O)c1ccc(NC(=O)C(C)(CCl)SC)cc1` (centres undefined), the activity change, negative = inhibition was inactive: 12.6%. The result for `O=C(COc1ccccc1)OC1CN2CCC1CC2` (centres undefined) reads inactive: 18%; that for `COP1(=S)c2c(C)nn(CCC#N)c2N=C(c2ccc(F)cc2)N1C` (centres undefined), inactive: 9.1%; that for `COc1ccc(N/C(=N/P(=O)(N2CCOCC2)N2CCOCC2)N2CCOCC2)cc1`, inactive: 8.72%. On to `O=[N+]([O-])c1cc(Oc2ccc([N+](=O)[O-])cc2C(F)(F)F)cc([N+](=O)[O-])c1`, for which the activity change, negative = inhibition is inactive: -14.1%. `COc1cc(I)ccc1[As](=O)(O)O`: the activity change, negative = inhibition is inactive: 0.0747%. Next, `COc1ccc2nc(NP(=O)(c3ccccc3)c3ccccc3)sc2c1`: inactive: 10.9% [at 46.1 µM].

Consider `O=P1(N(CCCl)CCCl)OCCCN1CCCl` (centres undefined), for which the activity change, negative = inhibition is inactive: 4.74%. For the compound `Cc1cc(=O)[nH]c(N[N+](=O)[O-])n1`, the activity change, negative = inhibition was inactive: -3.67% [at 46.1 µM]. Next, `O=C(OC1CN2CCC1CC2)C12CC3CC(CC(C3)C1)C2` (centres undefined): inactive: 4.71%; `CCN(CC)C(=S)SC(NC=O)C(Cl)(Cl)Cl` (centres undefined): inactive: -20.3%; `O=C(OC1CN2CCC1CC2)c1cccc2[nH]cnc12` (centres undefined): inactive: -2.3%.

Regarding `CC(C)NC(=O)NP(=O)(Oc1ccccc1)Oc1ccccc1`, the activity change, negative = inhibition was inactive: 1.26%.

For the compound `COC(=O)C1(C)COP(=O)(N2CCCCCC2)OC1` (centres undefined), the activity change, negative = inhibition was inactive: -2.2% [at 46.1 µM].

As for `ClCCSc1nnc(-c2cccnc2)o1`, the activity change, negative = inhibition is inactive: 1.89%. Next, `Cc1ccc2nc3c(c(C)c2c1)CC(C(Cl)Cl)S3` (centres undefined): inactive: 12.4%; `O=[N+]([O-])c1ccc(-c2cc([N+](=O)[O-])c(O)c([N+](=O)[O-])c2)cc1`: inactive: 18.2%; `O=[N+]([O-])c1ccc2c(c1)nnn2O`: inactive: 10.2%. Next, `CCOP1(=S)c2c(C)nn(CCC#N)c2N=C(c2ccc(F)cc2)N1C` (centres undefined): inactive: 9.45%; `CN(C(=O)Cc1ccccc1)[C@@H]1CC[C@]2(CCCO2)C[C@H]1N1CCCC1`: inactive: -34.4%; `O=C(O)COc1ccc([As](=O)(O)O)cc1[N+](=O)[O-]`: inactive: -5.19% [at 46.1 µM].

Regarding `Nc1ccccc1[As](=O)(O)c1ccccc1`, the activity change, negative = inhibition is inactive: -13.9%. The result for `O=P(Nc1nccs1)(c1ccccc1)c1nc2ccccc2s1` (centres undefined) reads inactive: -27.9%. Next, `CCOP1(=S)c2c(C)nn(CCC#N)c2N=C(c2ccccc2F)N1C` (centres undefined): inactive: 11.8%; `CCOP(=O)(Nc1cccc2ccccc12)OCC`: inactive: 7.22% [at 46.1 µM]. As for `Cc1ccc(NCCc2c([N+](=O)[O-])cc([N+](=O)[O-])cc2[N+](=O)[O-])cc1`, the activity change, negative = inhibition was inactive: -4.27%. The result for `Cc1cccc(OCC(=O)OC2CN3CCC2CC3)c1` (centres undefined) reads inactive: 4.95%; that for `COc1cc(C(=O)NCC2(N3CCOCC3)CCCCC2)cc(Cl)c1OC(C)C`, inactive: -10.3%. For the compound `O=C(OC1CN2CCC1CC2)c1ccc(Cl)cc1` (centres undefined), the activity change, negative = inhibition is inactive: 15.9% [at 46.1 µM]. Next, `CC1(CBr)Cn2c(nc3ccccc3c2=O)S1` (centres undefined): inactive: -10.7%. Take `CC(C)/C=N\N=C(\N)N[N+](=O)[O-]`: the activity change, negative = inhibition is inactive: 8.42%. The result for `COc1ccccc1CNC(=O)COC(=O)C(O)(c1ccccc1)c1ccccc1` reads inactive: -4.73%; that for `Clc1n[nH]nc1-c1nn[nH][15n]1`, inactive: 2.2%.

In the case of `CN(CCCl)Cc1cc(Cl)c(NC2=NCCN2)c(Cl)c1`, the activity change, negative = inhibition is inactive: -10.6%. Next, `O=P1(Nc2ccccn2)COc2ccccc2OC1`: inactive: 11.5%. Next, `O=P1(Nc2ccc(Br)cn2)COc2ccccc2OC1`: inactive: 10.7%. Next, `Cc1ccc(OCC(=O)OC2CN3CCC2CC3)cc1` (centres undefined): inactive: -4.85%; `O=P1(Nc2ncccn2)COc2ccccc2OC1`: inactive: -6.37%. Consider `CCCC1OP(=O)(Nc2ccccc2)OCC1CC` (centres undefined), for which the activity change, negative = inhibition was inactive: -12.5% [at 46.1 µM]. `O=C(/C=C/c1ccccc1)OC1CN2CCC1CC2` (centres undefined): the activity change, negative = inhibition was inactive: 1.45%. The result for `CN(C)C1(CNC(=O)c2ccc(S(C)(=O)=O)cc2)CCCCC1` reads inactive: -20.9%; that for `COc1cc(C2NCCC3(OCCO3)C2(C)C)cc(OC)c1OC.O=[N+]([O-])c1cc([N+](=O)[O-])c(O)c([N+](=O)[O-])c1` (centres undefined), inactive: 11.3%; that for `Cc1nn(-c2ccccc2)c2c1P(=O)(N1CCOCC1)N(C)C(c1ccccc1)=N2` (centres undefined), inactive: 3.4%.
